{"source": "PubChem BioAssay AID624099, ICCB-Longwood, 2012", "screen": "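Human genes that papillomavirus E2 requires to repress the HPV18 LCR promoter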 (primary screen)", "cells": "human C33A cervical carcinoma cells (HPV-negative) stably expressing BPV1 E2 and an HPV18 LCR luciferase reporter", "reagent": "siRNA pool against human genes, 40 nM", "timing": "72 h", "measured": "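HPV18 LCR reporter light per well, converted to plate-wise z-scores that exclude control wells, and averaged over triplicate plates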", "scale": "mean z-score and z-score: higher = stronger reporter signal, weaker E2 silencing", "call rule": "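Mean z ≥ 2 together with z ≥ 2 in two or more of the three replicates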", "note": "Shown is a random part of about 21,000 deposited reagents. In the full data, 497 (2.4%) are marked active. 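Higher z means weaker E2 silencing; only reporter increases were scored, and knock-downs that hurt cell survival may mask genuine repressor factors.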"}
{"gene symbol": "LOC390828 (retired record) (GeneID 390828)", "mean z-score": -0.7, "z-score, replicate A": -0.29, "z-score, replicate B": -0.69, "z-score, replicate C": -1.11, "Call": "inactive"}
{"gene symbol": "C1orf226 (GeneID 400793)", "mean z-score": 0.23, "z-score, replicate A": 0.32, "z-score, replicate B": -0.14, "z-score, replicate C": 0.52, "Call": "inactive"}
{"gene symbol": "AMFR (GeneID 267)", "mean z-score": -0.99, "z-score, replicate A": -0.85, "z-score, replicate B": -1.31, "z-score, replicate C": -0.82, "Call": "inactive"}
{"gene symbol": "SYCE1 (GeneID 93426)", "mean z-score": -0.35, "z-score, replicate A": -0.3, "z-score, replicate B": -0.44, "z-score, replicate C": -0.31, "Call": "inactive"}
{"gene symbol": "FGGY (GeneID 55277)", "mean z-score": 0, "z-score, replicate A": 0.11, "z-score, replicate B": -0.03, "z-score, replicate C": -0.08, "Call": "inactive"}
{"gene symbol": "SHROOM2 (GeneID 357)", "mean z-score": -2.24, "z-score, replicate A": -2.61, "z-score, replicate B": -2.19, "z-score, replicate C": -1.93, "Call": "inactive"}
{"gene symbol": "LOC390009 (retired record) (GeneID 390009)", "mean z-score": -1.61, "z-score, replicate A": -1.79, "z-score, replicate B": -1.75, "z-score, replicate C": -1.3, "Call": "inactive"}
{"gene symbol": "PYROXD1 (GeneID 79912)", "mean z-score": -1.18, "z-score, replicate A": -1.08, "z-score, replicate B": -1.18, "z-score, replicate C": -1.27, "Call": "inactive"}
{"gene symbol": "FAS (GeneID 355)", "mean z-score": 1, "z-score, replicate A": 0.91, "z-score, replicate B": 0.99, "z-score, replicate C": 1.1, "Call": "inactive"}
{"gene symbol": "IGF2BP1 (GeneID 10642)", "mean z-score": -1.5, "z-score, replicate A": -1.16, "z-score, replicate B": -1.85, "z-score, replicate C": -1.47, "Call": "inactive"}
{"gene symbol": "MRPS33 (GeneID 51650)", "mean z-score": -0.23, "z-score, replicate A": -0.11, "z-score, replicate B": -0.27, "z-score, replicate C": -0.33, "Call": "inactive"}
{"gene symbol": "ZC3HAV1L (GeneID 92092)", "mean z-score": -0.37, "z-score, replicate A": -0.33, "z-score, replicate B": -0.38, "z-score, replicate C": -0.39, "Call": "inactive"}
{"gene symbol": "ADGRE2 (GeneID 30817)", "mean z-score": -0.48, "z-score, replicate A": -0.6, "z-score, replicate B": -0.55, "z-score, replicate C": -0.3, "Call": "inactive"}
{"gene symbol": "HISLA (GeneID 283587)", "mean z-score": -1.39, "z-score, replicate A": -1.06, "z-score, replicate B": -1.56, "z-score, replicate C": -1.56, "Call": "inactive"}
{"gene symbol": "DNAJC3 (GeneID 5611)", "mean z-score": -1.38, "z-score, replicate A": -1.08, "z-score, replicate B": -1.49, "z-score, replicate C": -1.57, "Call": "inactive"}
{"gene symbol": "PLPPR1 (GeneID 54886)", "mean z-score": -0.35, "z-score, replicate A": 0.4, "z-score, replicate B": -0.32, "z-score, replicate C": -1.14, "Call": "inactive"}
{"gene symbol": "TLR4 (GeneID 7099)", "mean z-score": -0.67, "z-score, replicate A": -0.61, "z-score, replicate B": -0.63, "z-score, replicate C": -0.77, "Call": "inactive"}
{"gene symbol": "KXD1 (GeneID 79036)", "mean z-score": -0.06, "z-score, replicate A": -0.35, "z-score, replicate B": 0.09, "z-score, replicate C": 0.07, "Call": "inactive"}
{"gene symbol": "IPO4 (GeneID 79711)", "mean z-score": -1.04, "z-score, replicate A": -1.39, "z-score, replicate B": -1.55, "z-score, replicate C": -0.19, "Call": "inactive"}
{"gene symbol": "VAMP5 (GeneID 10791)", "mean z-score": -0.47, "z-score, replicate A": -0.68, "z-score, replicate B": -0.52, "z-score, replicate C": -0.21, "Call": "inactive"}
{"gene symbol": "PGM5P1 (retired record) (GeneID 653394)", "mean z-score": -0.93, "z-score, replicate A": -0.91, "z-score, replicate B": -0.73, "z-score, replicate C": -1.13, "Call": "inactive"}

Part of the list above in another layout.
{"gene symbol":"ZC3HAV1L (GeneID 92092)","mean z-score":-0.37,"z-score, replicate A":-0.33,"z-score, replicate B":-0.38,"z-score, replicate C":-0.39,"Call":"inactive"}
{"gene symbol":"ADGRE2 (GeneID 30817)","mean z-score":-0.48,"z-score, replicate A":-0.6,"z-score, replicate B":-0.55,"z-score, replicate C":-0.3,"Call":"inactive"}
